A mixed list of measured activities; the numbers were collected in NIAID ChemDB.

All rows: cytotoxicity tests; cells: MT-4; method: MTT; read-out: CC50

CCn is the concentration with n% toxicity to the cells.

SMILES	value
COC(=O)[C@H](CCSC)NC(=O)[C@H](CO)NC(=O)COc1ccc2ccccc2c1	49 µg/mL
Cc1ccc2snc(N=Cc3cccc(Cl)c3)c2c1	7 µM
Cc1cn([C@H]2C[C@H](N=[N+]=[N-])[C@@H](CO)O2)c(=O)[nH]c1=O	>7.48 µM
O=C(CCNC(=O)C(=O)/C=C(\O)c1cccn1Cc1ccc(F)cc1)OC[C@@H]1C=C[C@H](n2ccc(=O)[nH]c2=O)O1	>10 µM
COC(=O)CNC(=O)[C@H](C)NC(=O)COc1ccc2ccccc2c1	79 µg/mL
C#Cc1ccc(Nc2nccc(Oc3c(C)cc(-c4cn(Cc5ccc(C(N)=O)cc5)nn4)cc3C)n2)cc1	13.84 µM
COc1ccc2nc3cc(Cl)ccc3c(NCC(C)N(C)C)c2c1	5.7 µM
Cc1cn([C@H]2C=C[C@@H](COC(=O)CNC(=O)C(=O)/C=C(\O)c3cc(OCc4ccccc4)cc(OCc4ccccc4)c3)O2)c(=O)[nH]c1=O	>10 µM
CC(C)Nc1cccnc1N1CCN(C(=O)c2cc3cc(NS(C)(=O)=O)ccc3[nH]2)CC1	>4.38 µM
CCn1cc(C(=O)O)c(=O)c2cc(F)c(N3CCN(CC(=O)OC[C@@H]4CC[C@H](n5cnc6c(=O)[nH]cnc65)O4)CC3)cc21	560 µM
C#Cc1ccc(Nc2nccc(Oc3c(C)cc(-c4cn(-c5ccc(C(=O)O)cc5)nn4)cc3C)n2)cc1	33.17 µM
COC(=O)[C@H](CO)NC(=O)[C@H](CO)NC(=O)COc1ccc2ccccc2c1	>100 µg/mL
O=[N+]([O-])c1ccc(/C=N/c2nc3ccc(F)cc3s2)cc1	≥100 µM
COC(=O)[C@H](C)NC(=O)CNC(=O)COc1ccc2ccccc2c1	59 µg/mL
COc1ccc2nc3cc(Cl)ccc3c(N[C@@H]3CCCN4CCCC[C@H]34)c2c1	9.3 µM
Cc1cn([C@H]2C[C@H](N=[N+]=[N-])[C@@H](CO)O2)c(=O)[nH]c1=O	270 µg/mL
CC(C)c1s/c(=N\S(=O)(=O)c2cccc([N+](=O)[O-])c2)n(C)c1Cl	24 µM
COc1ccc2nc3cc(Cl)ccc3c(N3CCN(c4ccccc4)CC3)c2c1	>100 µM
CC(C)c1s/c(=N\S(=O)(=O)c2cc(Cl)ccc2C#N)n(C)c1Cl	3.8 µM
O=C(CNC(=O)C(=O)/C=C(\O)c1cccn1Cc1ccc(F)cc1)OC[C@@H]1C=C[C@H](n2ccc(=O)[nH]c2=O)O1	>10 µM
Cc1ccnc2c1NC(=O)c1cccnc1N2C1CC1	>15.02 µM
Cc1c(C(C)C)s/c(=N\S(=O)(=O)c2cc(C#N)ccc2C#N)n1C	11 µM
COC(=O)CNC(=O)CNC(=O)COc1ccc2ccccc2c1	>100 µg/mL
O=[N+]([O-])c1ccc(/C=N/c2nccs2)cc1	63 µM
C=C1[C@H](CO)[C@@H](O)C[C@@H]1n1cnc2c(=O)[nH]c(N)nc21	>4.59 µM
Cc1cn([C@H]2C=C[C@@H](COC(=O)CCNC(=O)C(=O)/C=C(\O)c3cc(OCc4ccccc4)cc(OCc4ccccc4)c3)O2)c(=O)[nH]c1=O	>10 µM
C#Cc1ccc(Nc2nccc(Oc3c(C)cc(-c4cn(CC(=O)Nc5ccc(Br)cc5)nn4)cc3C)n2)cc1	19.78 µM
Cc1c(C(C)(C)C)s/c(=N\S(=O)(=O)c2ccccc2O)n1C	>25 µM
COc1ccc2nc3cc(Cl)ccc3c(Nc3ccco3)c2c1	7 µM
c1cc2cc(NCCNC3=NCCCN3)ccc2[nH]1	203 µM
O=C(CN1CCN(c2cc3c(cc2F)c(=O)c(C(=O)O)cn3C2CC2)CC1)OC[C@@H]1CC[C@H](n2cnc3c(=O)[nH]cnc32)O1	380 µM
Cc1c(C(C)(C)C)s/c(=N\S(=O)(=O)c2cc(Cl)ccc2C#N)n1C	8 µM
COC(=O)[C@H](CO)NC(=O)[C@H](C)NC(=O)COc1ccc2ccccc2c1	>100 µg/mL
C(=N\c1nccs1)/c1ccccc1	>100 µM
COc1ccc(N2CCN(CC(=O)OC[C@@H]3CC[C@H](n4cnc5c(=O)[nH]cnc54)O3)CC2)cc1	828 µM
NC(=NCCCNc1ccc2[nH]ccc2c1)N[N+](=O)[O-]	≥360 µM
COc1ccc2nc3cc(Cl)ccc3c(N)c2c1	1.8 µM
CCC(C)C(=O)O[C@@]12[C@H](OC(C)=O)[C@@H](C)[C@]3(O)[C@@H]4C=C(C)C(=O)[C@H]4CC(CO)=C[C@H]3[C@@H]1C2(C)C	57 µM
COC(=O)c1ccc(Cl)cc1S(=O)(=O)/N=c1\sc(C(C)(C)C)c(C)n1C	>25 µM
Cc1cn([C@H]2C[C@H](N=[N+]=[N-])[C@@H](CO)O2)c(=O)[nH]c1=O	>10 µM
NC(N)=NCCCCNc1ccc2[nH]ccc2c1.O=S(O)O	213 µM
COC(=O)C1C(=O)N(O)C(=O)c2ccccc21	60.85 µM
COc1ccc2nc3cc(Cl)ccc3c(N3CCC(O)CC3)c2c1	6.2 µM
NCCCCNc1ccc2[nH]ccc2c1	19.23 µM

Repeating the first 4 entries:

SMILES	value
COC(=O)[C@H](CCSC)NC(=O)[C@H](CO)NC(=O)COc1ccc2ccccc2c1	49 µg/mL
Cc1ccc2snc(N=Cc3cccc(Cl)c3)c2c1	7 µM
Cc1cn([C@H]2C[C@H](N=[N+]=[N-])[C@@H](CO)O2)c(=O)[nH]c1=O	>7.48 µM
O=C(CCNC(=O)C(=O)/C=C(\O)c1cccn1Cc1ccc(F)cc1)OC[C@@H]1C=C[C@H](n2ccc(=O)[nH]c2=O)O1	>10 µM

Rows are shuffled and stem from different studies.